Measured values from several laboratories, pooled; numbers as filed in NIAID ChemDB.

All rows: growth or infection tests; species: Mycobacterium avium; measure: MIC90

Blank or dashed fields: not listed here. Lines come from different laboratories, so protocols vary. A number after MIC or MFC names an inhibition level or a share of isolates.

structure | read by | strain | result
Cc1cccc(C(=O)CC(N/N=C(\N)c2ccccn2)c2ccncc2)c1 |  | 17 strains | 80 µg/mL
CN1CCN(c2cc3c(cc2F)c(=O)c(C(=O)O)cn3C2CC2)CC1 |  |  | 16 µg/mL
N/C(=N\NC(CC(=O)c1ccc(-c2ccccc2)cc1)c1cccnc1)c1ccccn1 |  | 17 strains | 320 µg/mL
Cc1c(OCC(F)(F)F)ccnc1CSc1nc2ccccc2[nH]1 | resazurin |  | >100 µM
O[C@@H](c1cc(C(F)(F)F)nc2c(C(F)(F)F)cccc12)[C@@H]1CCCCN1 | broth dilution / radiometric | MAC 101 | 64 µg/mL
CCCCCCCCCCC#Cc1cn([C@H]2C[C@H](O)[C@@H](CO)O2)c(=O)[nH]c1=O |  |  | >100 µg/mL
O=C(O)c1cn(C2CC2)c2cc(N3CCN(c4ccccc4)CC3)c(F)cc2c1=O |  |  | >16 µg/mL
O[C@@H](c1cc(C(F)(F)F)nc2c(C(F)(F)F)cccc12)C1CCCCN1 | broth dilution / radiometric | MAC 101 | 32 µg/mL
CCCCCCCCC#Cc1cn([C@H]2C[C@H](O)[C@@H](CO)O2)c(=O)nc1N |  |  | >100 µg/mL
O[C@H](c1cc(C(F)(F)F)nc2c(C(F)(F)F)cccc12)C1CCCCN1 | broth dilution / radiometric | MAC 101 | 32 µg/mL
N/C(=N\NC(CC(=O)c1ccc(Cl)cc1Cl)c1ccccn1)c1ccccn1 |  | 17 strains | 160 µg/mL
C[C@H](O)[C@H]1C(=O)N2C(C(=O)O)=C(S[C@@H]3CN[C@H](C(=O)N(C)C)C3)[C@H](C)[C@H]12 | broth dilution / visual reading |  | >64 µg/mL
O=c1cc(-c2ccccc2)c2ccc(Cl)cc2o1 | resazurin | ATCC 15769 | >100 µg/mL
N/C(=N\NC(CC(=O)c1cccc(Br)c1)c1cccnc1)c1ccccn1 |  | 17 strains | 160 µg/mL
CN[C@@H]1[C@H](O[C@H]2[C@H](O[C@H]3[C@H](O)[C@@H](O)[C@H](N=C(N)N)[C@@H](O)[C@@H]3N=C(N)N)O[C@@H](C)[C@]2(O)C=O)O[C@@H](CO)[C@H](O)[C@H]1O |  | 100 strains | 5.8 µg/mL

2 of the rows above, restated:

structure,read by,strain,result
CCCCCCCCC#Cc1cn([C@H]2C[C@H](O)[C@@H](CO)O2)c(=O)nc1N,,,>100 µg/mL
Cc1c(OCC(F)(F)F)ccnc1CSc1nc2ccccc2[nH]1,resazurin,,>100 µM